Experimental data from patent publication US20020187514A1 (priority 1999, published 2002).
pKi: −log10 of the molar value.

Tested on: Sodium, Site 1
Assay: Sodium, Site 1; [3H]Saxitoxin
Format: binding
Details: read-out: Ref Kj; reference compound, QA/QC

NC1=N[C@H](O)[C@H]2[C@H]3O[C@]4(O)O[C@@H]([C@@H](O)[C@@]2(N1)[C@@H]4O)[C@]3(O)CO
pKi: 7.47
